Assay results as given in the supplement of paper PMC5770543.

Assays:
[1] = tested on: Plasmodium falciparum 3D7; experiment: EC50 growth inhibition (60 h, SYBR Green); conditions: stage: ring-stage start
[2] = tested on: Plasmodium falciparum 3D7; experiment: % inhibition of schizont-to-ring transition vs DMSO; higher = more inhibition
Procedure, shortened: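 Tightly synchronised P. falciparum schizonts (about 40–42 hours post-invasion, 1% parasitemia, 2.5% hematocrit, AlbuMAX-supplemented RPMI) were exposed to compound at 1, 3 or 10 µM, with vehicle and positive controls. Cells were glutaraldehyde-fixed, Triton-permeabilised, stained with Hoechst 33342 and counted by flow cytometry (at least 100,000 events). Schizont-to-ring transition inhibition is new ring formation relative to vehicle controls, averaged over three experiments.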

[3] = tested on: Toxoplasma gondii RH tachyzoites; experiment: % growth inhibition vs DMSO (48 h luciferase); higher = more inhibition; conditions: 10 µM
[4] = target: Toxoplasma gondii RH tachyzoites; experiment: EC50 growth inhibition (48 h luciferase)
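For % growth inhibition vs DMSO (48 h luciferase) in this document: tested in triplicate wells of 96-well plates on confluent HFF monolayers, with 1% DMSO wells as negative control in four replicates.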

SMILES: CCC1(C)CC(CCNCc2ccccc2O)(c2ccc(C)cc2)CCO1 (stereo unspecified)
- EC50 growth inhibition [1]: 0.357 µM
- % inhibition of schizont-to-ring transition ([2]; 1 µM): 40.2%
- % inhibition of schizont-to-ring transition ([2]; 3 µM): 65.1%
- % inhibition of schizont-to-ring transition ([2]; 10 µM): 71.6%
- % growth inhibition [3]: 76.3 ± 2.5%

SMILES: c1ccc2c(NCCCCCCNc3c4c(nc5ccccc35)CCCC4)c3c(nc2c1)CCCC3
- EC50 growth inhibition [1]: 0.152 µM
- EC50 growth inhibition [4]: 2.08 µM
- % inhibition of schizont-to-ring transition ([2]; 1 µM): 45.3%
- % inhibition of schizont-to-ring transition ([2]; 3 µM): 73.6%
- % inhibition of schizont-to-ring transition ([2]; 10 µM): 81.1%
- % growth inhibition [3]: 99.68 ± 0.17%

± gives the standard deviation.
